Experimental data as given in ChEMBL document CHEMBL4359929, “Piperidine and piperazine inhibitors of fatty acid amide hydrolase targeting excitotoxic pathology” (Bioorg Med Chem, 2019).

Experiments:
[1] = Selectivity ratio of IC50 for human recombinant His-tagged MGL expressed in Escherichia coli BL21 DE3 cells to IC50 for rat recombinant His/GST-tagged FAAH expressed in Escherichia coli cells by fluorescence based assay
Homo sapiens [2] = species: Homo sapiens; test: Selectivity ratio of IC50 for human recombinant His-tagged MGL expressed in Escherichia coli BL21 DE3 cells to IC50 for human recombinant MBP-tagged FAAH expressed in Escherichia coli cells by fluorescence based assay
[3] = Selectivity ratio of IC50 for human full length ABHD6 expressed in Escherichia coli cells to IC50 for rat recombinant His/GST-tagged FAAH expressed in Escherichia coli cells by fluorescence based assay
Homo sapiens [4] = species: Homo sapiens; test: Selectivity ratio of IC50 for human full length ABHD6 expressed in Escherichia coli cells to IC50 for human recombinant MBP-tagged FAAH expressed in Escherichia coli cells by fluorescence based assay

Measured: Ratio IC50

O=C(Oc1cncc(N2CCS(=O)(=O)CC2)c1)N1CCC(c2ccc(F)cc2)CC1
> 1000: all assays above
